The assay addresses T1, brain AChE (Gallus gallus, UniProt P36196).
T1 sequence (P36196 20-767): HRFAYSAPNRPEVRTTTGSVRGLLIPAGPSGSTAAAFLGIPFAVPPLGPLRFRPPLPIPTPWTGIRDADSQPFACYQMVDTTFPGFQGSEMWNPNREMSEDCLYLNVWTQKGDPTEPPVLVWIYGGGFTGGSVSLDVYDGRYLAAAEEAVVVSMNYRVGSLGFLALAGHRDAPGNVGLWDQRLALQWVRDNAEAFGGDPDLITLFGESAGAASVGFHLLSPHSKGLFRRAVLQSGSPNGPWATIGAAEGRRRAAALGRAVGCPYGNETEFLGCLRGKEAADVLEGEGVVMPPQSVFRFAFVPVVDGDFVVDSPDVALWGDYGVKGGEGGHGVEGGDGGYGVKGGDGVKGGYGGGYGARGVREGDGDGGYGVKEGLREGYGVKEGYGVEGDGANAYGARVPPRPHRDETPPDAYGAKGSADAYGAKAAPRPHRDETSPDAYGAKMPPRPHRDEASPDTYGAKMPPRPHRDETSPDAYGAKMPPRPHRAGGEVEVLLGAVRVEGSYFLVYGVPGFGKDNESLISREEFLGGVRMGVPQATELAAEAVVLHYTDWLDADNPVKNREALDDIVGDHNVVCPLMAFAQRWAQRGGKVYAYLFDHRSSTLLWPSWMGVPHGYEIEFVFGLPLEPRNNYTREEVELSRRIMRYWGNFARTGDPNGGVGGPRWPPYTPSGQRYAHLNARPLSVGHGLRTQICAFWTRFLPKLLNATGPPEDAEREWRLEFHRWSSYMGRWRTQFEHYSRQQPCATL
The experiment in a line: biochemical.

Consider `COP(=O)(OC)Oc1ccc([N+](=O)[O-])cc1` [methyl-paraoxon, dimethyl-4-nitrophenyl-phosphate], for which half-maximal inhibition (IC50) required 25.7 ± 1.76 nM and binding was characterised by a dissociation constant (Kd) of 600 ± 130 nM.

For the origin of these results see article PMC5031402, “Evaluation of a Brain Acetylcholinesterase Extraction Method and Kinetic Constants after Methyl-Paraoxon Inhibition in Three Brazilian Fish Species” (PLoS ONE, 2016).
